Anti-infective test results gathered from many reports (values: NIAID ChemDB through PubChem).

Common to all: whole-cell or culture tests; species: HIV-1; cells: MT-2; read-out: EC50

Two numbers with a dash give a range or band. ECn: concentration that inhibits the pathogen or its effect by n%. Blank or dashed fields: not listed here. Lines come from different laboratories, so protocols vary.

structure | strain or isolate | changes | read by | setting | value
CC(C)C1=C2[C@H]3CC[C@@H]4[C@@]5(C)CC[C@H](OC(=O)[C@H]6C[C@@H](C(=O)O)C6(C)C)C(C)(C)[C@@H]5CC[C@@]4(C)[C@]3(C)CC[C@@]2([C@@H](O)CNC(=O)[C@@H](CO)NC(=O)c2ccc(Cl)cc2)CC1=O | 92HT599 | - | p24 / ELISA | - | <1 µM
C#C[C@@]1(CO)C=C[C@H](n2cc(C)c(=O)[nH]c2=O)O1 | Clinical isolate | M41L/A98G/K103N/M184V/L210W/T215Y | recombinant virus assay | - | 1.07 µM
CC(C)C1=C2C3CCC4[C@@]5(C)CC[C@H](OC(=O)CC(C)(C)C(=O)O)C(C)(C)C5CC[C@@]4(C)[C@]3(C)CC[C@@]2(NC(=O)N(C)C(C)C)CC1=O | IIIB | - | RT activity | 30% human serum | <0.199 µM
Cc1ncn(-c2cc(F)ccc2CNC(=O)c2nc3n(c(=O)c2O)CCOC32CCN(S(=O)(=O)c3cc(F)ccc3C)CC2)n1 | NL4-3 | - | luciferase / reporter gene | - | 0.001–0.01 µM
CC(C)C1=C2[C@H]3CC[C@@H]4[C@@]5(C)CC[C@H](OC(=O)[C@H]6C[C@@H](C(=O)O)C6(C)C)C(C)(C)[C@@H]5CC[C@@]4(C)[C@]3(C)CC[C@@]2(CC(=O)NCC(C)(CCCN)NC(=O)c2ccc(Cl)cc2)CC1=O | 92HT599 | - | p24 / ELISA | - | <1 µM
O=C(NCc1ccc(F)cc1N1CCCCS1(=O)=O)c1nc2n(c(=O)c1O)CCCOC21CCN(C(=O)OCc2ccccc2)CC1 | NL4-3 | - | luciferase / reporter gene | - | 0.001–0.01 µM
CC(C)C1=C2[C@H]3CC[C@@H]4[C@@]5(C)CC[C@H](OC(=O)[C@H]6C[C@@H](C(=O)O)C6(C)C)C(C)(C)[C@@H]5CC[C@@]4(C)[C@]3(C)CC[C@@]2(CC(=O)NC2(c3ncc(Cl)cn3)CC2)CC1=O | 92HT599 | - | p24 / ELISA | - | <1 µM
CC(C)C1=C2C3CCC4[C@@]5(C)CC[C@H](OC(=O)CC(C)(C)C(=O)O)C(C)(C)C5CC[C@@]4(C)[C@]3(C)CC[C@@]2(NC(=O)NCc2ncccn2)CC1=O | IIIB | - | RT activity | 30% human serum | <0.199 µM
Cc1ccc(S(=O)(=O)N2CCC3(CC2)OCCn2c3nc(C(=O)NCc3ccc(F)cc3-n3nc(C)nc3C)c(O)c2=O)cc1 | NL4-3 | - | luciferase / reporter gene | - | 0.001–0.01 µM
CC(C)C1=C2[C@H]3CC[C@@H]4[C@@]5(C)CC[C@H](OC(=O)[C@H]6C[C@@H](C(=O)O)C6(C)C)C(C)(C)[C@@H]5CC[C@@]4(C)[C@]3(C)CC[C@@]2(CC(=O)NCc2ccc(Cl)cc2OCCN2CCOCC2)CC1=O | 92HT599 | - | p24 / ELISA | - | <1 µM
COC(=O)N1CCC2(CC1)OCCn1c2nc(C(=O)NCc2ccc(F)cc2-n2cncn2)c(O)c1=O | NL4-3 | - | luciferase / reporter gene | - | 0.001–0.01 µM
CC(C)C1=C2[C@H]3CC[C@@H]4[C@@]5(C)CC[C@H](OC(=O)CC(C)(C)C(=O)O)C(C)(C)[C@@H]5CC[C@@]4(C)[C@]3(C)CC[C@@]2(NC(=O)N2CCOCC2)CC1=O | IIIB | - | RT activity | 30% human serum | <0.199 µM
COCCOc1cc(Cl)ccc1C(=O)NC(C)(C)CNC[C@H](O)[C@@]12CC[C@]3(C)[C@H](CC[C@@H]4[C@@]5(C)CC[C@H](OC(=O)[C@H]6C[C@@H](C(=O)O)C6(C)C)C(C)(C)[C@@H]5CC[C@]43C)C1=C(C(C)C)C(=O)C2 | 92HT599 | - | p24 / ELISA | - | <1 µM
CC(C)C1=C2[C@H]3CC[C@@H]4[C@@]5(C)CC[C@H](OC(=O)CC(C)(C)C(=O)O)C(C)(C)[C@@H]5CC[C@@]4(C)[C@]3(C)CC[C@@]2(NC(=O)Cc2ccc(F)cc2)CC1=O | IIIB | - | RT activity | 30% human serum | <0.199 µM
CC(C)C1=C2[C@H]3CC[C@@H]4[C@@]5(C)CC[C@H](OC(=O)[C@H]6C[C@@H](C(=O)O)C6(C)C)C(C)(C)[C@@H]5CC[C@@]4(C)[C@]3(C)CC[C@@]2([C@@H](O)CNCc2ccc(Cl)cc2O[C@H]2CCOC2)CC1=O | 92HT599 | - | p24 / ELISA | - | <1 µM
CC(C)C1=C2C3CCC4[C@@]5(C)CC[C@H](OC(=O)CC(C)(C)C(=O)O)C(C)(C)C5CC[C@@]4(C)[C@]3(C)CC[C@@]2(NC(=O)[C@@H]2CCCN2C(C)C)CC1=O | IIIB | - | RT activity | 30% human serum | <0.199 µM
Nc1nc(NC2CC2)c2ncn([C@H]3C=C[C@@H](CO)C3)c2n1 | Clinical isolate | K65R/Y181C/G190S | recombinant virus assay | - | 0.2376 µM
CC(C)C1=C2[C@H]3CC[C@@H]4[C@@]5(C)CC[C@H](OC(=O)CC(C)(C)C(=O)O)C(C)(C)[C@@H]5CC[C@@]4(C)[C@]3(C)CC[C@@]2(NC(=O)C2CCN(C)CC2)CC1=O | IIIB | - | RT activity | 30% human serum | <0.199 µM
CC(C)C1=C2[C@H]3CC[C@@H]4[C@@]5(C)CC[C@H](OC(=O)[C@H]6C[C@@H](C(=O)O)C6(C)C)C(C)(C)[C@@H]5CC[C@@]4(C)[C@]3(C)CC[C@@]2(CC(=O)NC[C@@H]2CCCCN2)CC1=O | 92HT599 | - | p24 / ELISA | - | <1 µM
O=C(NCc1ccc(F)cc1)c1nc2n(c(=O)c1O)CCOCC21CCN(C(=O)OCc2ccccc2)CC1 | NL4-3 | - | luciferase / reporter gene | - | 0.01–0.1 µM
CC(C)C1=C2[C@H]3CC[C@@H]4[C@@]5(C)CC[C@H](OC(=O)CC(C)(C)C(=O)O)C(C)(C)[C@@H]5CC[C@@]4(C)[C@]3(C)CC[C@@]2(NC(=O)OC(C)(C)C)CC1=O | IIIB | - | RT activity | - | <0.199 µM